Compound potency records, mixed from different reports. Data source: NIAID ChemDB in PubChem.

Common to all: whole-cell or culture tests; species: Parainfluenza virus; method: cytopathic effect; endpoint: EC50

ECn: concentration that inhibits the pathogen or its effect by n%. Conditions beyond the fields shown may differ between rows. An empty or dashed field is not shown.

SMILES	strain or isolate	cell line	result
CC1(C)[C@@H](CO)CC[C@@]1(C)Cn1nnc2c(Cl)ncnc21	TYPE 3	VERO	>400 µg/mL
CC1(C)[C@@H](CCO)C[C@H]1n1nnc2c(N)ncnc21	TYPE 3	VERO	>100 µg/mL
OC[C@H]1O[C@@H](c2cncc(Br)c2)[C@@H](O)[C@H]1O	TYPE 3	VERO	≥100 µg/mL
C[C@@]1(O)[C@@H](CO)O[C@@H](n2cnc3c(N)ncnc32)[C@@H]1O	TYPE 3	VERO	40 µg/mL
CC1(C)[C@@H](CO)CC[C@@]1(C)Cn1cnc2c(N)ncnc21	TYPE 3	VERO	>400 µg/mL
NC1CSCCN2CCc3c([nH]c4ccccc34)[C@H]12	TYPE 3	VERO	7 µg/mL
NC(=O)c1cncc([C@@H]2O[C@H](CO)[C@H](O)[C@@H]2O)c1	TYPE 3	VERO	≥100 µg/mL
Nc1ncnc2c1ncn2CC[C@H](O)CCO	TYPE 3	VERO	>400 µg/mL
CC1(CO)CCC(Cn2nnc3c(Cl)nc(N)nc32)C1(C)C	TYPE 3	VERO	>100 µg/mL
Nc1ncnc2c1ncn2[C@H]1C[C@@H](O)[C@H](CO)O1	TYPE 3	VERO B	>1000 µM
CC1(CO)CCC(Cn2ccc(=O)[nH]c2=O)C1(C)C	TYPE 3	VERO	>400 µg/mL
Nc1ccn([C@@H]2OC[C@H](CO)[C@H]2O)c(=O)n1	TYPE 3	VERO	>80 µg/mL
Nc1[nH]c(=O)ncc1F	C243 (TYPE 3)	VERO	>5000 µM
Nc1nc2c(ncn2[C@H]2CO[C@@H](CO)C2)c(=O)[nH]1	TYPE 4	VERO	200 µg/mL
CC1(C)[C@@H](CCO)C[C@H]1n1cnc2c(N)ncnc21	TYPE 3	VERO	>400 µg/mL
OC[C@H]1O[C@@H](c2cc(Cl)c(F)cc2F)C[C@@H]1O	TYPE 3	VERO	>80 µg/mL
Nc1ncnc2c1ncn2[C@@H]1C=C(CO)[C@@H](O)[C@@H]1O	TYPE 3	VERO	10 µg/mL
Nc1ncnc2c1ncn2[C@@H]1O[C@@H](CO)[C@H](O)[C@H]1O	TYPE 3	VERO B	>1000 µM
OC[C@H]1O[C@@H](c2cc(/C=C/Br)c(F)cc2F)C[C@@H]1O	TYPE 3	VERO	>16 µg/mL
CSCC1=C[C@@H](n2cnc3c(N)ncnc32)[C@H](O)[C@@H]1O	TYPE 3	VERO	>200 µg/mL
CC1(C)[C@@H](CO)CC[C@@]1(C)Cn1ccc(=O)[nH]c1=O	TYPE 3	VERO	>400 µg/mL
C[C@H]1O[C@@H](c2n[nH]c(C(N)=O)c2O)[C@H](O)[C@@H]1O	TYPE 3	VERO	>200 µg/mL
Nc1ncnc2c1ncn2C[C@H](O)CO	TYPE 3	VERO	20 µg/mL
Nc1nc2c(ccn2[C@H]2CO[C@@H](CO)C2)c(=O)[nH]1	TYPE 6	VERO	150 µg/mL
Cc1cn([C@H]2O[C@H](CO)[C@@H](N=[N+]=[N-])[C@H]2F)c(=O)nc1N	TYPE 3	VERO B	>400 µg/mL
CO[C@H](CO)[C@@H](O)CCn1cnc2c(=O)[nH]c(N)nc21	TYPE 3	VERO	>400 µg/mL
Nc1nccc2c1ncn2[C@@H]1C[C@H](CO)[C@@H](O)[C@H]1O	TYPE 3	VERO	0.7 µg/mL
Nc1ncnc2c1ncn2[C@@H]1C=C(CF)[C@H](O)[C@H]1O	TYPE 3	VERO	7 µg/mL
CC1(CO)CCC(Cc2nc3ncnc(N)c3[nH]2)C1(C)C	TYPE 3	VERO	>10 µg/mL
Nc1nc2c(ncn2[C@H]2C[C@H](O)[C@@H](COP(=O)(O)C(=O)O)O2)c(=O)[nH]1	TYPE 3	VERO	2800 µM
CC1(CO)CCC(Cn2nnc3c(Cl)ncnc32)C1(C)C	TYPE 3	VERO	>40 µg/mL
NC(=O)CCN(CCC(N)=O)S(=O)(=O)c1cccc(Nc2nc(Nc3cccc(S(=O)(=O)N(CCC(N)=O)CCC(N)=O)c3)nc(Nc3ccc(-c4ccc(Nc5nc(Nc6cccc(S(=O)(=O)N(CCC(N)=O)CCC(N)=O)c6)nc(Nc6cccc(S(=O)(=O)N(CCC(N)=O)CCC(N)=O)c6)n5)cc4S(=O)(=O)O)c(S(=O)(=O)O)c3)n2)c1	TYPE 3	HEP-2	>375 µg/mL
Cc1nc(CC(O)CO)c2nc[nH]c(=O)n12	TYPE 3	VERO	>400 µg/mL
N#Cc1cncc([C@@H]2O[C@H](CO)[C@H](O)[C@@H]2O)c1	TYPE 3	VERO	≥100 µg/mL
NS(=O)(=O)c1ncnc2c1ncn2[C@@H]1O[C@H](CO)[C@@H](O)[C@@H]1O	TYPE 3	-	>320 µM
Nc1nc2c(ncn2[C@H]2OC[C@@H](CO)C2O)c(=O)[nH]1	TYPE 3	VERO	>16 µg/mL
S=c1[nH]n2c(-c3cn(-c4ccccc4)nc3-c3ccccc3)nnc2s1	TYPE 3	VERO	>80 µg/mL
Cc1cn([C@@H]2OC[C@H](CO)[C@H]2O)c(=O)[nH]c1=O	TYPE 3	VERO	>80 µg/mL
O=c1[nH]n2c(-c3cn(-c4ccccc4)nc3-c3ccccc3)nnc2sc1=O	TYPE 3	VERO	>80 µg/mL
CC1(CO)CCC(Cn2cnc3c(=O)[nH]c(N)nc32)C1(C)C	TYPE 3	VERO	>400 µg/mL
NC1=CC(c2ccccc2)=Nn2c(nnc2-c2cn(-c3ccccc3)nc2-c2ccccc2)S1	TYPE 3	VERO	>16 µg/mL
COc1ccc2[nH]c3c(c2c1)CCN1OCSCC(N)[C@@H]31	TYPE 3	VERO	0.7 µg/mL
Nc1nc(F)nc2c1ncn2[C@@H]1C=C(CO)[C@@H](O)[C@H]1O	TYPE 3	VERO	2 µg/mL
O=c1ccn([C@@H]2O[C@H](CO)[C@](O)(C(F)(F)F)[C@H]2O)c(=O)[nH]1	TYPE 3	VERO	>400 µg/mL
Nc1ncnc2c1ncn2[C@@H]1C=C(CO)[C@@H](O)C1	TYPE 3	VERO	40 µg/mL
Nc1ccn([C@@H]2C[C@H](CO)[C@@H](O)[C@H]2O)c(=O)n1	TYPE 3	VERO	6 µg/mL
NC(=S)c1cncc([C@H]2O[C@H](CO)[C@@H](O)[C@@H]2O)c1	TYPE 3	VERO	≥100 µg/mL
O=C(Nn1c(-c2cn(-c3ccccc3)nc2-c2ccccc2)n[nH]c1=S)c1ccccc1	TYPE 3	VERO	>16 µg/mL
COc1cc2c(cc1OC)[C@@H]1C(N)CSCON1CC2	TYPE 3	VERO	0.2 µg/mL
CC1(CO)CCC(Cn2cnc3c(Cl)nc(N)nc32)C1(C)C	TYPE 3	VERO	>200 µg/mL
Cc1nc(C(C)C)c2[nH]c(=S)[nH]c(=O)n12	TYPE 3	VERO	>200 µg/mL
NS(=O)(=O)c1ncnc2c1ncn2[C@H]1C[C@H](O)[C@@H](CO)O1	TYPE 3	-	>320 µM
CC(=O)O[C@H]1[C@@H](Oc2c(C)c(O)c3c(=O)cc(C)oc3c2C)O[C@H](CO)[C@@H](O)[C@@H]1O	TYPE 3	HEP-2	20.8 µg/mL
Nc1ccn(CC[C@H](O)CCO)c(=O)n1	TYPE 3	VERO	>400 µg/mL
CC(C)CS[C@@H]1C[C@H](n2cnc3c(N)ncnc32)[C@@H](O)[C@H]1O	TYPE 3	HeLa	>80 µg/mL
C=CCc1nc(C)n2c(=O)[nH]c(=S)[nH]c12	TYPE 3	VERO	>200 µg/mL
CC1(C)[C@@H](CCO)C[C@H]1n1nnc2c(=O)[nH]c(N)nc21	TYPE 3	VERO	>400 µg/mL
Cc1cn(CC[C@H](O)CCO)c(=O)[nH]c1=O	TYPE 3	VERO	>400 µg/mL
NS(=O)c1ncnc2c1ncn2[C@@H]1O[C@H](CO)[C@@H](O)[C@@H]1O	TYPE 3	-	>320 µM
Nc1nc(=O)n([C@H]2C=C(F)[C@@H](CO)O2)cc1F	C243 (TYPE 3)	VERO	130 µM

The last 8 rows once more:

SMILES | strain or isolate | cell line | result
CC(=O)O[C@H]1[C@@H](Oc2c(C)c(O)c3c(=O)cc(C)oc3c2C)O[C@H](CO)[C@@H](O)[C@@H]1O | TYPE 3 | HEP-2 | 20.8 µg/mL
Nc1ccn(CC[C@H](O)CCO)c(=O)n1 | TYPE 3 | VERO | >400 µg/mL
CC(C)CS[C@@H]1C[C@H](n2cnc3c(N)ncnc32)[C@@H](O)[C@H]1O | TYPE 3 | HeLa | >80 µg/mL
C=CCc1nc(C)n2c(=O)[nH]c(=S)[nH]c12 | TYPE 3 | VERO | >200 µg/mL
CC1(C)[C@@H](CCO)C[C@H]1n1nnc2c(=O)[nH]c(N)nc21 | TYPE 3 | VERO | >400 µg/mL
Cc1cn(CC[C@H](O)CCO)c(=O)[nH]c1=O | TYPE 3 | VERO | >400 µg/mL
NS(=O)c1ncnc2c1ncn2[C@@H]1O[C@H](CO)[C@@H](O)[C@@H]1O | TYPE 3 | - | >320 µM
Nc1nc(=O)n([C@H]2C=C(F)[C@@H](CO)O2)cc1F | C243 (TYPE 3) | VERO | 130 µM